Compound potency records, mixed from different reports. Data source: NIAID ChemDB in PubChem.

Shared fields: tests in culture; species: HIV-1; cells: CEM; measure: fold resistance

Neighbouring rows are from separate reports.

| SMILES | strain | changes | read by | value |
|---|---|---|---|---|
| CC(C)OC(=S)Nc1ccc(Cl)c(C(=O)OC2(C)COC2)c1 |  | RT-V106A | syncytia | 17 |
| CC1=C(C(=O)Nc2ccc(Cl)c(C(=O)OC3CCCCC3C)c2)SCCO1 | PYR-resistant (RT Y181C) | RT-Y181C | syncytia | 13 |
| CC(C)OC(=S)Nc1ccc(Cl)c(C(=O)OC(C(C)C)C(C)C)c1 |  | RT-L100I | syncytia | >14.3 |
| Cc1occc1C(=S)Nc1ccc(Cl)c(OCCC(C)C)c1 |  | RT-K103N | syncytia | 21.4 |
| CN1CCN(C(=O)c2ccc3c(=O)c4ccccc4[nH]c3c2)CC1 | TSAO-resistant (RT E138K) | RT-E138K | syncytia | 71.4 |
| CC(C)OC(=S)Nc1ccc(Cl)c(C(=O)OC(C)(C)C)c1 |  | RT-Y181C | syncytia | 150 |
| C/C=C/CSc1cc(NC(=S)c2ccsc2C)ccc1Cl |  | RT-K103N | syncytia | 12.9 |
| Cc1cc(C)c(CS(=O)c2cccc[n+]2[O-])c(C)c1 | IIIB | RT-K103N | syncytia | 4.58 |
| C#CCOC(=O)c1cc(NC(=S)OC(C)C)ccc1Cl |  | RT-L100I | syncytia | 20.7 |
| Cc1ccccc1C(=S)Nc1ccc(Cl)c(C(=O)OC(C)C)c1 |  | RT-Y181C | syncytia | 29.2 |
| CC(C)OC(=O)Nc1ccc(Cl)c(C(=O)OC(C)C)c1 |  | RT-E138K | syncytia | >1.82 |
| Cc1occc1C(=S)Nc1ccc(Cl)c(/C=N/N(C)C)c1 | HEPT-resistant (RT Y188L) | RT-Y188L | syncytia | <250 |
| CC1=C(C(=S)Nc2ccc(Cl)c(C=NOC(C)(C)C)c2)CCCO1 |  | RT-K103N | syncytia | 6.17 |
| CCC(CC)OC(=O)c1cc(NC(=S)OC(C)C)ccc1Cl |  | RT-V106A | syncytia | 100 |
| Cc1ccsc1C(=S)Nc1ccc(Cl)c(/C=N/OC(C)(C)C)c1 |  | RT-L100I | syncytia | 20 |
| CCCCOC(=O)c1cc(NC(=S)OC(C)C)ccc1Cl |  | RT-L100I | syncytia | 15 |
| Cc1occc1C(=S)Nc1ccc(Cl)c(OCC=C(Cl)Cl)c1 | TSAO-m3T-resistant (RT E138K) | RT-E138K | syncytia | 4.71 |
| CCCOC(=O)c1ccc(C)c(NC(=O)C2=C(C)OCCS2)c1 | Nevirapine-resistant (RT V106A) | RT-V106A | syncytia | >10 |
| CC(C)OC(=O)c1cc(NC(=S)OC(C)C)ccc1Cl | IIIB | RT-L100I | syncytia | 71 |
| CCc1c(Sc2ccccc2)n(COCc2ccccc2)c(=S)[nH]c1=O | IIIB | RT-Y181I | syncytia | 260 |
| COc1ccc(C)cc1CS(=O)(=O)c1cccc[n+]1[O-] | IIIB | RT-E138K | syncytia | 8.47 |
| Cc1sccc1C(=S)Nc1ccc(Cl)c(C(=O)OC2CCCCC2)c1 |  | RT-K103N | syncytia | 67.9 |
| CC1=C(C(=O)Nc2ccc(Cl)c(C(=O)OC(C)C)c2)SCCO1 | IIIB | RT-L100I | syncytia | >2670 |
| C=CCOC(=O)c1cc(NC(=S)OC(C)C)ccc1Cl |  | RT-Y181C | syncytia | 21.3 |
| C=C(Cl)COc1cc(NC(=S)c2ccoc2C)ccc1C | TIBO R82150-resistant (RT L100I) | RT-L100I | syncytia | 10.6 |
| Cc1ccsc1C(=S)Nc1ccc(Cl)c(C(=O)OC2CCCCC2)c1 |  | RT-Y181C | syncytia | 3.87 |
| CC(C)OC(=O)Oc1cc(NC(=S)OC(C)C)ccc1Cl |  | RT-Y181C | syncytia | 15 |
| CC(C)=CCOc1cc(NC(=S)c2ccsc2C)ccc1Cl |  | RT-Y188L | syncytia | 211 |
| CO/N=C(\C)COc1cc(NC(=S)OC(C)C)ccc1Cl |  | RT-Y181C | syncytia | 57 |
| CC1=C(C(=O)Nc2cc(C(=O)OC(C)C)c(F)cc2F)SCCO1 | Nevirapine-resistant (RT V106A) | RT-V106A | syncytia | >11.8 |
| CCOC(=O)COc1cc(NC(=S)OC(C)C)ccc1Cl |  | RT-Y181C | syncytia | 19.8 |
| CC(C)OC(=O)c1cc(NC(=S)c2ccccc2N)ccc1Cl |  | RT-Y181C | syncytia | 100 |
| CC(C)OC(=S)Nc1ccc(Cl)c(C(=O)SC(C)C)c1 |  | RT-L100I | syncytia | 27.6 |
| COc1ccc(NC(=S)c2ccoc2C)cc1OCC=C(Cl)Cl | TIBO R82150-resistant (RT L100I) | RT-L100I | syncytia | 6.25 |
| Cc1ccc(C)c(CS(=O)(=O)c2cccc[n+]2[O-])c1 | IIIB | RT-Y181C | syncytia | 3.77 |
| CC(C)c1c(Sc2ccccc2)n(COCCO)c(=S)[nH]c1=O | IIIB | RT-Y181C | syncytia | 30 |
| CC(C)O/N=C/c1cc(NC(=S)OC(C)C)ccc1Cl | IIIB | RT-K101E |  | 4.1 |
| Cc1occc1C(=S)Nc1ccc(Cl)c(SCC=C(Cl)Cl)c1 | TSAO-m3T-resistant (RT E138K) | RT-E138K | syncytia | 6 |
| CC(C)OC(=O)c1cc(NC(=O)OCC2CC2)ccc1Cl |  | RT-E138K | syncytia | 13.3 |
| CC(C)c1c(Sc2ccccc2)n(COCCO)c(=O)[nH]c1=O | IIIB | RT-Y188H | syncytia | >357 |
| Cc1occc1C(=S)Nc1ccc(Cl)c(/C=N/OC(C)(C)C)c1 | IIIB | RT-K103N | syncytia | 8 |
| CC(C)OC(=O)c1cc(NC(=S)c2ccco2)ccc1Cl |  | RT-L100I | syncytia | 12.1 |
| Cc1sccc1C(=S)Nc1ccc(Cl)c(OCC=C(Cl)Cl)c1 | TIBO R82150-resistant (RT L100I) | RT-L100I | syncytia | 9.29 |
| CC(C)OC(=O)c1cc(NC(=S)OCC2CC2)ccc1Cl |  | RT-L100I | syncytia | 35.6 |
| Cc1ccsc1C(=S)Nc1ccc(Cl)c(C(=O)OC(C)C)c1 |  | RT-V106A | syncytia | 50 |
| CC(C)=CCOc1cc(NC(=S)c2ccoc2C)ccc1Cl | IIIB | RT-K103N | syncytia | 8 |
| C/C=C/COc1cc(NC(=S)c2ccn(C)c2C)ccc1Cl |  | RT-Y181C | syncytia | 19 |
| C=CCOC(=S)Nc1ccc(Cl)c(C(=O)OC(C)C)c1 |  | RT-V106A | syncytia | 109 |
| Cc1occc1C(=S)Nc1ccc(Cl)c(OC(=O)OC(C)C)c1 |  | RT-Y188L | syncytia | >5.5 |
| COc1ccc(NC(=S)c2ccsc2C)cc1OCC=C(Cl)Cl | Nevirapine-resistant isolate (RT V106A) | RT-V106A | syncytia | 18 |
| C/C=C/COc1cc(NC(=S)c2ccoc2C)ccc1Cl |  | RT-V106A | syncytia | 85 |
| CC(C)OC(=S)Nc1ccc(Cl)c(C(=O)OC2CC2)c1 |  | RT-V106A | syncytia | 50.2 |
| CC1=C(C(=O)Nc2ccc(Cl)c(OCC=C(Cl)Cl)c2)SCCO1 | HEPT-resistant (RT Y188H) | RT-Y188H | syncytia | 1.67 |
| CC(C)OC(=O)c1cc(NC(=S)c2ccsc2)ccc1Cl |  | RT-E138K | syncytia | 10.8 |
| C/C(Cl)=C/COc1cc(NC(=S)c2ccoc2C)ccc1Cl | Nevirapine-resistant isolate (RT V106A) | RT-V106A | syncytia | 4 |
| Cn1cccc1C(=S)Nc1ccc(Cl)c(/C=N/OC(C)(C)C)c1 |  | RT-V106A | syncytia | 3.46 |
| CCOC(=O)c1cc(NC(=S)OC(C)C)ccc1C |  | RT-L100I | syncytia | 2260 |
| O=C(Nc1ccc(Cl)c(C(=O)OC2CCCCC2)c1)c1ccccc1F |  | RT-V106A | syncytia | 3.31 |
| COc1ccc(NC(=S)C2=C(C)OCCS2)cc1OCC=C(Cl)Cl | TIBO R82150-resistant (RT L100I) | RT-L100I | syncytia | 6.67 |
| CCOCn1c(Cc2cc(C)cc(C)c2)c(CC)c(=O)[nH]c1=O | IIIB | Nevirapine resistant (RT Y181C) | syncytia | 60 |
| Cc1sccc1C(=S)Nc1ccc(Cl)c(OCCC(C)C)c1 |  | RT-V106A | syncytia | 8.45 |
| CCOCn1c(Cc2ccccc2)c(CC)c(=O)[nH]c1=O | IIIB | RT-Y181I | syncytia | 431 |
| COc1ccccc1C(=S)Nc1ccc(Cl)c(C(=O)OC(C)C)c1 |  | RT-V106A | syncytia | 46 |

A second listing of 5 rows from above:

SMILES,strain,changes,read by,value
CC(C)c1c(Sc2ccccc2)n(COCCO)c(=S)[nH]c1=O,IIIB,RT-Y181C,syncytia,30
CCOCn1c(Cc2cc(C)cc(C)c2)c(CC)c(=O)[nH]c1=O,IIIB,Nevirapine resistant (RT Y181C),syncytia,60
COc1ccc(NC(=S)C2=C(C)OCCS2)cc1OCC=C(Cl)Cl,TIBO R82150-resistant (RT L100I),RT-L100I,syncytia,6.67
CC(C)OC(=S)Nc1ccc(Cl)c(C(=O)OC2(C)COC2)c1,,RT-V106A,syncytia,17
C=C(Cl)COc1cc(NC(=S)c2ccoc2C)ccc1C,TIBO R82150-resistant (RT L100I),RT-L100I,syncytia,10.6

Fold resistance: result on the changed form divided by that on wild type. An empty or dashed field is not shown.